Assay results from publication PMC5011961, “In vitro antimicrobial activities of animal-used quinoxaline 1,4-di-N-oxides against mycobacteria, mycoplasma and fungi” (BMC Veterinary Research, 2016).

Test system: PK-15 cells
Assay: Cytotoxicity assay (MTT)
Details: PK-15, maximum non-cytotoxic concentration (90 % cell viability)

Work on `NC(=O)c1ncn([C@@H]2O[C@H](CO)[C@@H](O)[C@H]2O)n1` [Ribavirin, ribavirin] yielded an MNTC of 2.0 µg/mL.
